Pooled drug test results. Numbers come from NIAID ChemDB, via PubChem.

Shared fields: tests in culture; agent: Herpes simplex virus 2; measure: EC50

Two numbers with a dash give a range or band. ECn: concentration that inhibits the pathogen or its effect by n%. Lines come from different laboratories, so protocols vary. An empty or dashed field is not shown.

compound,strain,cell line,value
Nc1nc2c(ncn2[C@H]2C=C[C@@H](CO)CC2)c(=O)[nH]1,-,-,0.1–1 µM
Cc1cn([C@@H]2OC3COP(=O)(O)OC3[C@H]2O)c(=O)nc1N,LYONS,-,>400 µg/mL
O=C1C=CN(COCCO)S(=O)(=O)N1COCCO,LYONS,E6SM,>400 µg/mL
CN1Cc2cc3ccc4c(c3c(-c3ccc5c(c3)OCO5)c2C1=O)OCO4,-,-,15 µM
Cc1cn([C@H]2S[C@H](CO)C[C@H]2N=[N+]=[N-])c(=O)[nH]c1=O,-,-,>100 µg/mL
CC1(C)OCC2(CO[C@H](n3ccc(=O)[nH]c3=O)C2)O1,-,CCL18,>100 µM
Nc1ncnc2c1ncn2[C@@H]1OCC(CO)=C1F,-,-,>100 µg/mL
O=c1[nH]cnc2c1ncn2C1C[C@H](CO)[C@@H](CO)C1,G,E6SM,>100 µg/mL
CC1(C)OCC2(CO[C@@H](n3ccc(NC(=O)c4ccccc4)nc3=O)C2)O1,-,CCL18,>100 µM
CCCCc1cn([C@@H]2O[C@H](COP(=O)(O)O)[C@@H](O)[C@H]2O)c(=O)nc1N,G,-,>400 µg/mL
Cc1cn([C@@H]2CC3(CO2)COC(C)(C)O3)c(=O)[nH]c1=O,-,CCL18,>100 µM
O=c1[nH]c(=O)n(C2C[C@H](CO)[C@@H](CO)C2)cc1I,G,E6SM,>100 µg/mL
O=c1cc(-c2ccc(-c3ccccc3)cc2)oc2ccccc12,UW-268,VERO,8.6 µg/mL
C=C1[C@H](CO)[C@H]1Cn1cnc2c(Cl)nc(N)nc21,-,-,>100 µM
CC(=O)OCCOCN1C(=N)/C(=C(\C)O)C(N)=NS1(=O)=O,LYONS,E6SM,>400 µg/mL
Nc1ncnc2c1cnn2Cc1cn(CCCCO)nn1,G,E6SM,>400 µg/mL
CC1(C)OCC(COC(=O)O)(CC(COC(=O)O)OC(=O)O)O1,-,CCL18,>100 µM
Nc1ccn([C@H]2C[C@H](CO)[C@@H](CO)O2)c(=O)n1,-,-,1.4 µg/mL
CNc1ncnc2c1ncn2[C@@H]1S[C@@H](CO)C[C@@H]1N=[N+]=[N-],-,-,>100 µg/mL
CSc1ncnc2c1cnn2Cc1cnnn1CCCCO,G,E6SM,>400 µg/mL
O=C(Nc1ccn([C@@H]2CC(O)(CO)CO2)c(=O)n1)c1ccccc1,-,CCL18,>100 µM
O=c1ccn(C[C@H]2C[C@H]2[C@H](O)CO)c(=O)[nH]1,-,VERO,>50 µM
CC(=O)OCCOCN1C=CC(=O)NS1(=O)=O,LYONS,E6SM,>400 µg/mL
CC(C)c1ccc(-c2cc(-c3cn([C@H]4CC[C@H](O)[C@@H](CO)O4)c(=O)[nH]c3=O)on2)cc1,-,-,0.09 µg/mL
O=c1ccn([C@@H]2C[C@](O)(CO)CO2)c(=O)[nH]1,-,CCL18,>100 µM
C=C1[C@H](CO)OC[C@@H]1n1ccc(=O)[nH]c1=O,-,-,>100 µg/mL
Cc1cn([C@@H]2O[C@H](COP(=O)(O)O)[C@@H](O)[C@H]2O)c(=O)nc1N,LYONS,-,>400 µg/mL
Nc1nc2c(ncn2[C@@H]2C=C[C@H](CO)[C@@H](O)C2)c(=O)[nH]1,G,-,0.05 µg/mL
COC(=O)[C@H](C)NP(=O)(OCC1C/C1=C/n1cnc2c(N)ncnc21)Oc1ccccc1,-,-,>1 µM
OC[C@H]1CC(n2cnc3c(NC4CC4)ncnc32)C[C@@H]1CO,G,E6SM,>100 µg/mL
Nc1nc2c(ncn2COCCO)c(=O)[nH]1,-,-,1.33 µM
N#CC1=CN(COCCO)S(=O)(=O)N=C1N,LYONS,E6SM,>400 µg/mL
COc1ncnc2c1cnn2Cc1cn(CCCCO)nn1,G,E6SM,>400 µg/mL
COC1=C2C[C@@H](C)C[C@@H](OC)[C@@H](O)[C@H](C)/C=C(\C)[C@@H](OC(N)=O)[C@H](OC)/C=C\C=C(/C)C(=O)NC(=CC1=O)C2=O,SAV,VERO,4 µM
CCOC(=O)C1=CN(COCCOC(C)=O)S(=O)(=O)N=C1N,LYONS,E6SM,>400 µg/mL
C=C1[C@H](CO)[C@H]1Cn1cnc2c(N)ncnc21,-,-,>100 µM
[N-]=[N+]=N[C@H]1C[C@H](CO)S[C@H]1n1cnc2c(Cl)ncnc21,-,-,>100 µg/mL
Nc1ncnc2c1ncn2C[C@H]1C[C@H]1CO,-,VERO,>50 µM
Nc1nc2c(ncn2COCCO)c(=O)[nH]1,-,VERO,0.31 µM
Nc1ccn(C[C@H]2C[C@H]2CO)c(=O)n1,-,VERO,>50 µM
[N-]=[N+]=N[C@H]1C[C@H](CO)S[C@H]1n1cnc2c(=O)[nH]cnc21,-,-,>100 µg/mL
CCc1cn([C@@H]2O[C@H](COP(=O)(O)O)[C@@H](O)[C@H]2O)c(=O)nc1N,196,-,>400 µg/mL
COC(=O)[C@H](C)NP(=O)(OCC1C/C1=C/n1cnc2c(=O)[nH]c(N)nc21)Oc1ccccc1,-,-,>100 µM
CC(C)c1cn([C@@H]2OC3COP(=O)(O)OC3[C@H]2O)c(=O)nc1N,196,-,>400 µg/mL
COc1nc(N)nc2c1ncn2/C=C1/C[C@H]1CO,-,-,>50 µM
CC(=O)OCCOCN1C=CC(=O)N(COCCO)S1(=O)=O,LYONS,E6SM,>400 µg/mL
C=C1[C@H](CO)[C@H]1Cn1cnc2c(=O)[nH]cnc21,-,-,>100 µM
Cc1cn([C@H]2S[C@@H](CO)C[C@@H]2N=[N+]=[N-])c(=O)[nH]c1=O,-,-,>100 µg/mL

A second listing of 4 rows from above:

C=C1[C@H](CO)OC[C@@H]1n1ccc(=O)[nH]c1=O ; value: >100 µg/mL
CC1(C)OCC2(CO[C@H](n3ccc(=O)[nH]c3=O)C2)O1 ; cell line: CCL18 ; value: >100 µM
CC1(C)OCC(COC(=O)O)(CC(COC(=O)O)OC(=O)O)O1 ; cell line: CCL18 ; value: >100 µM
N#CC1=CN(COCCO)S(=O)(=O)N=C1N ; strain: LYONS ; cell line: E6SM ; value: >400 µg/mL